{"source": "PubChem BioAssay AID624099 – ICCB-Longwood, 2012", "aim": "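Host factors E2 relies on to silence an HPV18 LCR reporter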 (primary screen)", "cell system": "human C33A cervical carcinoma cells (HPV-negative) stably expressing BPV1 E2 and an HPV18 LCR luciferase reporter", "reagent": "siRNA pool against human genes, 40 nM", "time to read-out": "72 h", "measured": "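Per-well luciferase luminescence, z-scored on each plate against the plate mean and SD with control wells left out, then averaged across three replicate plates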", "scale": "mean z-score and z-score: higher = stronger reporter signal, weaker E2 silencing", "call rule": "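Hit if mean z-score reaches 2 and two or more of three replicate z-scores also reach 2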", "note": "In all, the deposit lists about 21,000 reagents; below is a part drawn at random. Over the whole deposit, 497 (2.4%) got an active call. 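Higher z means weaker E2 silencing; only reporter increases were scored, and knock-downs that hurt cell survival may mask genuine repressor factors.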 Reagents against one gene are numbered here."}
{"gene knocked down": "SMPD3", "reagent no.": 1, "mean z-score": -1.53, "z-score, replicate A": -1.49, "z-score, replicate B": -1.34, "z-score, replicate C": -1.75, "activity call": "inactive"}
{"gene knocked down": "MBLAC1", "reagent no.": 1, "mean z-score": 0.89, "z-score, replicate A": 0.82, "z-score, replicate B": 0.71, "z-score, replicate C": 1.12, "activity call": "inactive"}
{"gene knocked down": "MBLAC1", "reagent no.": 2, "mean z-score": 0.93, "z-score, replicate A": 1.4, "z-score, replicate B": 0.56, "z-score, replicate C": 0.83, "activity call": "inactive"}
{"gene knocked down": "TRIM51FP", "reagent no.": 1, "mean z-score": -1.41, "z-score, replicate A": -0.96, "z-score, replicate B": -1.71, "z-score, replicate C": -1.56, "activity call": "inactive"}
{"gene knocked down": "EXOC1", "reagent no.": 1, "mean z-score": -0.63, "z-score, replicate A": -0.5, "z-score, replicate B": -0.52, "z-score, replicate C": -0.88, "activity call": "inactive"}
{"gene knocked down": "P2RY4", "reagent no.": 1, "mean z-score": 0.04, "z-score, replicate A": 0.12, "z-score, replicate B": -0.11, "z-score, replicate C": 0.11, "activity call": "inactive"}
{"gene knocked down": "TRIM39", "reagent no.": 1, "mean z-score": 1.11, "z-score, replicate A": 1.09, "z-score, replicate B": 0.96, "z-score, replicate C": 1.28, "activity call": "inactive"}
{"gene knocked down": "OR6B1", "reagent no.": 1, "mean z-score": 0.38, "z-score, replicate A": 0.3, "z-score, replicate B": 0.61, "z-score, replicate C": 0.22, "activity call": "inactive"}
{"gene knocked down": "OR6B1", "reagent no.": 2, "mean z-score": 0.37, "z-score, replicate A": 0.23, "z-score, replicate B": 0.41, "z-score, replicate C": 0.47, "activity call": "inactive"}
{"gene knocked down": "RBM47", "reagent no.": 1, "mean z-score": 2.68, "z-score, replicate A": 2.36, "z-score, replicate B": 2.51, "z-score, replicate C": 3.16, "activity call": "active"}

Hits, among the entries above:
{"gene knocked down": "RBM47", "reagent no.": 1, "mean z-score": 2.68, "z-score, replicate A": 2.36, "z-score, replicate B": 2.51, "z-score, replicate C": 3.16, "activity call": "active"}

Continued.
{"gene knocked down": "LINC02347", "reagent no.": 1, "mean z-score": 0.09, "z-score, replicate A": 0.28, "z-score, replicate B": -0.02, "z-score, replicate C": 0.03, "activity call": "inactive"}
{"gene knocked down": "IFNA7", "reagent no.": 1, "mean z-score": 0.02, "z-score, replicate A": -0.04, "z-score, replicate B": 0.13, "z-score, replicate C": -0.03, "activity call": "inactive"}
{"gene knocked down": "KLK15", "reagent no.": 1, "mean z-score": 0.54, "z-score, replicate A": 0.24, "z-score, replicate B": 0.94, "z-score, replicate C": 0.45, "activity call": "inactive"}
{"gene knocked down": "GPR183", "reagent no.": 1, "mean z-score": -0.37, "z-score, replicate A": -0.51, "z-score, replicate B": -0.51, "z-score, replicate C": -0.09, "activity call": "inactive"}
{"gene knocked down": "DRAM2", "reagent no.": 1, "mean z-score": -1.08, "z-score, replicate A": -1.03, "z-score, replicate B": -0.92, "z-score, replicate C": -1.3, "activity call": "inactive"}
{"gene knocked down": "MBIP", "reagent no.": 1, "mean z-score": 0.58, "z-score, replicate A": 0.37, "z-score, replicate B": 0.8, "z-score, replicate C": 0.56, "activity call": "inactive"}
{"gene knocked down": "LOC400953 (retired record)", "reagent no.": 1, "mean z-score": -1.29, "z-score, replicate A": -1.19, "z-score, replicate B": -1.33, "z-score, replicate C": -1.35, "activity call": "inactive"}
{"gene knocked down": "LINC01121", "reagent no.": 1, "mean z-score": 0.29, "z-score, replicate A": 0.68, "z-score, replicate B": -0.2, "z-score, replicate C": 0.39, "activity call": "inactive"}
{"gene knocked down": "ZNF582", "reagent no.": 1, "mean z-score": -0.42, "z-score, replicate A": -0.24, "z-score, replicate B": -0.55, "z-score, replicate C": -0.47, "activity call": "inactive"}
{"gene knocked down": "LINC02860", "reagent no.": 1, "mean z-score": 1.08, "z-score, replicate A": 0.96, "z-score, replicate B": 1.23, "z-score, replicate C": 1.05, "activity call": "inactive"}
{"gene knocked down": "H3C12", "reagent no.": 1, "mean z-score": -1.03, "z-score, replicate A": -1.26, "z-score, replicate B": -0.8, "z-score, replicate C": -1.05, "activity call": "inactive"}
{"gene knocked down": "ALDH7A1", "reagent no.": 1, "mean z-score": 0.78, "z-score, replicate A": 1.31, "z-score, replicate B": 0.43, "z-score, replicate C": 0.6, "activity call": "inactive"}
{"gene knocked down": "IDI2-AS1", "reagent no.": 1, "mean z-score": 2.24, "z-score, replicate A": 2.72, "z-score, replicate B": 1.86, "z-score, replicate C": 2.13, "activity call": "active"}
{"gene knocked down": "ASH1L", "reagent no.": 1, "mean z-score": -0.26, "z-score, replicate A": -0.2, "z-score, replicate B": -0.13, "z-score, replicate C": -0.44, "activity call": "inactive"}
{"gene knocked down": "METRN", "reagent no.": 1, "mean z-score": 0.1, "z-score, replicate A": -0.22, "z-score, replicate B": 0.47, "z-score, replicate C": 0.06, "activity call": "inactive"}
{"gene knocked down": "C11orf52", "reagent no.": 1, "mean z-score": -0.13, "z-score, replicate A": -0.04, "z-score, replicate B": -0.3, "z-score, replicate C": -0.03, "activity call": "inactive"}
{"gene knocked down": "RPL6P25", "reagent no.": 1, "mean z-score": 0.89, "z-score, replicate A": 0.96, "z-score, replicate B": 0.71, "z-score, replicate C": 0.99, "activity call": "inactive"}
